Compound potency records, mixed from different reports. Data source: NIAID ChemDB in PubChem.

Shared fields: whole-cell or culture tests; species: Influenza A virus

ECn is the concentration giving n% inhibition of infection, replication or growth.

structure,endpoint,read by,strain,cell line,value
CC1=C(C)C2(C)CCC(C)(C)C1C2N,EC50,plaque count,-,MDCK,53 µM
CC1(CO)CCC(Cn2nnc3c(=O)[nH]c(N)nc32)C1(C)C,EC50,cytopathic effect,H3N2 X31,MDCK,>50 µg/mL
Cc1nc(N2CC[N+]3(CC2)CC[N+]2(CCN(c4nc(C)[nH]c(=O)c4[N+](=O)[O-])CC2)CC3)c([N+](=O)[O-])c(=O)[nH]1,EC50,cytopathic effect,-,MDCK,>70 µg/mL
CC#Cc1cn([C@@H]2O[C@H](COP(=O)(O)Oc3ccccc3Cl)[C@@H](O)[C@@H]2O)c(=O)[nH]c1=O,EC50,plaque count,H1N1 A/Sweden/3/50,MDCK,>100 µM
NC1C2CCCC1CC2,EC50,plaque count,-,MDCK,30.1 µM
Nc1nc(Cl)cc(NC2(CO)CCC2)n1,EC50,plaque count,H1N1 A/PR/8/34,MDCK,>440 µM
CCCCCCCNC(=O)O[C@@H]([C@@H]1OC(C(=O)O)=C[C@H](N=C(N)N)[C@H]1NC(=O)O)[C@H](C)CO,EC50,plaque count,H3N2 AICHI,MDCK,0.05 µg/mL
Nc1nc2c(ccn2[C@@H]2C[C@H](CO)[C@@H](O)[C@H]2O)c(=O)[nH]1,MIC,-,Influenza A/Victoria/3/75 (H3N2),-,>100 µg/mL
CC#Cc1cn([C@@H]2O[C@H](COP(=O)(Oc3ccccc3)Oc3ccc([N+](=O)[O-])cc3)[C@@H](O)[C@@H]2O)c(=O)[nH]c1=O,EC50,plaque count,H1N1 A/Sweden/3/50,MDCK,2.3 µM
CC(=O)N[C@H]1[C@H]([C@H](O)[C@H](O)CO)OC(C(=O)O)=C[C@@H]1N=C(N)N,EC50,plaque count,Influenza A/Johannesburg/33/94 (H3N2),MDCK,0.241 µM
COS(=O)(=O)O.N=C(N)c1ccc2cc(OC(=O)c3ccc(N=C(N)N)cc3)ccc2c1,EC50,cytopathic effect,Influenza A/Ishikawa/7/82 (H3N2),MDCK,0.44 µg/mL
C/C1=C\C=C\C2(C)C=C(CO)C(C)CC23OC([O-])C(C3=O)C(O)/C=C/C2(C)C=C(CO)C(C)CC23OC([O-])C(C3=O)C(O)/C(C)=C/C=C/C2C=C(CO)C(C)CC23OC([O-])C(C3=O)C(O)/C=C/C2(C)C=C(CO)C(C)CC23OC([O-])C(C3=O)C1O,EC50,cytopathic effect,A/Victoria,MDCK,24 µg/mL
Nc1nccc(NCC2(CO)CC(Cc3ccccc3)C2)n1,EC50,plaque count,H1N1 A/PR/8/34,MDCK,4–13 µM
CC1(CO)CCC(Cn2nnc3c(N)nc(N)nc32)C1(C)C,EC50,cytopathic effect,H3N2 X31,MDCK,>50 µg/mL
Nc1nc(Cl)c(C=O)c(NCC2(CO)CC(CCc3ccccc3)C2)n1,EC50,plaque count,H1N1 A/PR/8/34,MDCK,6.7–8 µM
O=C(NCCN1CCC[C@@H]2CCCC[C@@H]21)c1cc(Cl)ccc1O,EC50,plaque count,H1N1 A/WSN/33 (H1N1),MDCK,1.4 µg/mL
C[C@H](CO)[C@@H](OC(=O)NCCSc1ncccn1)[C@@H]1OC(C(=O)O)=C[C@H](N=C(N)N)[C@H]1NC(=O)O,EC50,plaque count,H3N2 AICHI,MDCK,0.0001 µg/mL
Cc1ccc(O)c(C(=O)N[C@H]2CCC34CCC3N(Cc3ccccc3)C4C2)c1,EC50,plaque count,H1N1 A/WSN/33 (H1N1),MDCK,>50 µg/mL
CC1=C(C)C2(C)CC[C@@H](C(C)C)C1C2N,EC50,plaque count,-,MDCK,>20 µM
Nc1nc(Cl)c(N)c(NCC2(CO)CC(Cc3ccccc3)C2)n1,EC50,plaque count,H1N1 A/PR/8/34,MDCK,0.12–0.17 µM
CCCC(CCC)C(NC(C)=O)C1CC(C(=O)O)CC1N=C(N)N,EC50,-,Influenza A/Shandong/09/93 (H3N2),MDCK,0.28 µM
CCC(CC)O[C@@H]1C=C(C(=O)O)C[C@H](N)[C@H]1NC(C)=O,EC50,-,H3N2 A/X-31,MDCK,0.12 µM
C/C1=C\C=C\C2(C)C=C(CO[C@H]3O[C@H](CO)[C@H](O)[C@H](O)[C@H]3O)C(C)CC23OC([O-])C(C3=O)C(O)/C=C/C2(C)C=C(C=O)C(C)CC23OC([O-])C(C3=O)C(O)/C(C)=C/C=C/C2C=C(CO[C@H]3O[C@H](CO)[C@H](O)[C@H](O)[C@H]3O)C(C)CC23OC([O-])C(C3=O)C(O)/C=C/C2(C)C=C(C=O)C(C)CC23OC([O-])C(C3=O)C1O,EC50,cytopathic effect,A/Victoria,MDCK,>100 µg/mL
C1CN(CC2CO2)CC[N+]2(C1)CC[N+]1(CCCN(CC3CO3)CC1)CC2,EC50,cytopathic effect,-,MDCK,>70 µg/mL
Nc1nc2c(ncn2[C@@H]2O[C@H](CO)[C@@H](O)[C@H]2F)c(=O)[nH]1,EC50,plaque count,A/Sweden,MDCK,18.02 µM
C/C=C\[C@@H]1C[C@H](C(=O)O)N[C@H]1[C@@H](NC(C)=O)[C@](C)(CCC)OC,EC50,plaque count,H1N1 isolate C9C,MDCK,1.25 µg/mL
Nc1nc2c(=O)[nH]cnc2n1[C@@H]1O[C@H](CO)[C@@H](O)[C@H]1F,EC50,virus yield,Recombinant A/X31,CEF,>20 µM
CC#Cc1cn([C@@H]2O[C@H](COP(=O)(OCC(Cl)(Cl)Cl)Oc3ccccc3)[C@@H](O)[C@@H]2O)c(=O)[nH]c1=O,EC50,plaque count,H1N1 A/Sweden/3/50,MDCK,>10 µM
Nc1ncc(Br)c(NCC2(CO)CC(CCc3ccccc3)C2)n1,EC50,plaque count,H1N1 A/PR/8/34,MDCK,0.026–0.2 µM
CC1=C(C)C2C(N)C1[C@@H](C(C)C)C[C@@H]2C,EC50,plaque count,-,MDCK,51 µM
CC#Cc1cn([C@@H]2O[C@H](COP(=O)(N[C@H](C(=O)OC)C(C)C)Oc3ccccc3)[C@@H](O)[C@@H]2O)c(=O)[nH]c1=O,EC50,plaque count,H1N1 A/Sweden/3/50,MDCK,>100 µM
Cc1ccc(O)c(C(=O)NCCN2[C@H](C)CC[C@@H]3CCCC[C@H]32)c1,EC50,plaque count,H1N1 A/WSN/33 (H1N1),MDCK,1.5 µg/mL
Cc1cccc(C(=S)NC[C@@]2(C)C[C@@H](O)CC(C)(C)C2)c1,EC50,cytopathic effect,H1N1 A/WSN/33,MDCK,>10 µg/mL
CC(=O)O[C@H]1CC[C@@]23Oc4c(c(OCc5ccccc5)cc5c4CNC5=O)C[C@]2(C)[C@@H](C)CC[C@H]3C1(C)C,EC50,-,H1N1 A/WSN/33,MDBK,>12 µM
CCC(C)N1C2CCC23CC[C@@H](NC(=O)c2cc(C)ccc2O)CC13,EC50,plaque count,H1N1 A/WSN/33 (H1N1),MDCK,>50 µg/mL
Nc1nc(Cl)cc(NCC2(CO)CCCC2)n1,EC50,plaque count,H1N1 A/PR/8/34,MDCK,26–51 µM
CCC(CC)[C@H](NC(C)=O)[C@@H]1C[C@@H](C(=O)O)C[C@H]1N=C(N)N,EC50,-,H1N1 A/PR/8/34,MDCK,1 µM
O=c1[nH]cnc2c1ncn2[C@@H]1O[C@H](CO)[C@@H](O)[C@H]1F,EC50,plaque count,A/Sweden,MDCK,>100 µM
C/C(=C\CCC(C)[C@H]1CC[C@@]2(C)C3=C(CC[C@]12C)[C@@]1(C)CC[C@H](O)C(C)(C)C1CC3=O)CO,EC50,-,-,MDCK,220 µM
CC(=O)Oc1cc2c(c3c1C[C@]1(C)[C@@H](C)CC[C@H]4C(C)(C)[C@@H](OC(C)=O)CC[C@]41O3)CNC2=O,EC50,-,H1N1 A/WSN/33,MDBK,1.7 µM
CC(=O)N[C@H]1[C@H]([C@H](O)[C@H](O)CO)OC(C(=O)O)=C[C@@H]1N=C(N)N,EC50,cytopathic effect,Influenza A/Shandong/09/03 (H3N2),MDCK,0.043 µM
CC1(CO)CCC(Cn2cnc3c(N)nc(N)nc32)C1(C)C,EC50,cytopathic effect,H3N2 X31,MDCK,>50 µg/mL
Cc1cc(C)cc(C(=S)NC[C@@]2(C)C[C@@H](O)CC(C)(C)C2)c1,EC50,cytopathic effect,H1N1 A/WSN/33,MDCK,>10 µg/mL
C[C@H](CO)[C@@H](OC(=O)NCCCCNCCN)[C@@H]1OC(C(=O)O)=C[C@H](N=C(N)N)[C@H]1NC(=O)O,EC50,plaque count,H3N2 AICHI,MDCK,0.019 µg/mL
CCCCCCCCCCCCCCCCO[C@H]1N([C@H]2C[C@H](N=[N+]=[N-])[C@@H](CO)O2)C(=O)NC(=O)[C@]1(C)Br,EC50,cytopathic effect,Influenza A/Ishikawa/7/82 (H3N2),MDCK,>500 µg/mL
CCNC1C2CCCC1(C)[C@@H](C)[C@H]2C,EC50,plaque count,-,MDCK,15.1 µM
O=C(N[C@@H]1CCC23CCC2N(Cc2ccccc2)C3C1)c1cc(Cl)ccc1O,EC50,plaque count,H1N1 A/WSN/33 (H1N1),MDCK,>50 µg/mL
C[C@H](CO)[C@@H](OC(N)=O)[C@@H]1OC(C(=O)O)=C[C@H](N=C(N)N)[C@H]1NC(=O)O,EC50,plaque count,H3N2 AICHI,MDCK,0.005 µg/mL
C1=CCC2(CC1)COC(c1ccco1)OC2,EC50,cytopathic effect,Influenza A/Ishikawa/7/82 (H3N2),MDCK,>500 µg/mL
CC(N)C12CC3CC(CC(C3)C1)C2,EC50,ELISA,H3N2 77 french isolates,VERO,0.033 µg/mL
CCN(CC)C(=S)Sc1ncnc(N2CC[N+]3(CC2)CC[N+]2(CCN(c4ncnc(SC(=S)N(CC)CC)c4[N+](=O)[O-])CC2)CC3)c1[N+](=O)[O-],EC50,cytopathic effect,-,MDCK,>70 µg/mL
CC1=C(C)C2(C)CC(C)(C)CC1C2N,EC50,plaque count,-,MDCK,30.4 µM
C[C@H]1CC[C@H]2C(C)(C)C(=O)CC[C@]23Oc2c(c(O)cc4c2C(=O)NC4=O)C[C@]13C,EC50,-,H1N1 A/WSN/33,MDBK,0.006 µM
Nc1c(N2CC[N+]3(CC2)CC[N+]2(CCN(c4nc[nH]c(=O)c4N)CC2)CC3)nc[nH]c1=O,EC50,cytopathic effect,-,MDCK,>70 µg/mL
C/C1=C\C=C\C2(C)C=C(CO[C@H]3O[C@H](CO)[C@H](O)[C@H](O)[C@H]3O)C(C)CC23OC([O-])C(C3=O)C(O)/C=C/C2(C)C=C(CO)C(C)CC23OC([O-])C(C3=O)C(O)/C(C)=C/C=C/C2C=C(CO[C@H]3O[C@H](CO)[C@H](O)[C@H](O)[C@H]3O)C(C)CC23OC([O-])C(C3=O)C(O)/C=C/C2(C)C=C(C=O)C(C)CC23OC([O-])C(C3=O)C1O,EC50,cytopathic effect,A/Victoria,MDCK,>100 µg/mL
Cc1nc(N2CC[N+]3(CC2)CC[N+]2(CCNCC2)CC3)c([N+](=O)[O-])c(N2CC[N+]3(CC2)CC[N+]2(CCNCC2)CC3)n1,EC50,cytopathic effect,-,MDCK,>70 µg/mL
Cc1ccc(C(=S)NC[C@@]2(C)C[C@@H](O)CC(C)(C)C2)cc1,EC50,cytopathic effect,H1N1 A/WSN/33,MDCK,>10 µg/mL
CC[C@H]1C2CCCC(C2N)[C@H]1C,EC50,plaque count,-,MDCK,17.9 µM
Cc1ccc(O)c(C(=O)NCCN2[C@@H](C)CC[C@@H]3CCCC[C@@H]32)c1,EC50,plaque count,H1N1 A/WSN/33 (H1N1),MDCK,6 µg/mL
CC(C)CS[C@H]1C[C@@H](n2cnc3c(N)ncnc32)[C@H](O)[C@@H]1O,EC50,cytopathic effect,-,MDCK,>100 µg/mL

Again, the opening 5 rows:

structure	endpoint	read by	strain	cell line	value
CC1=C(C)C2(C)CCC(C)(C)C1C2N	EC50	plaque count	-	MDCK	53 µM
CC1(CO)CCC(Cn2nnc3c(=O)[nH]c(N)nc32)C1(C)C	EC50	cytopathic effect	H3N2 X31	MDCK	>50 µg/mL
Cc1nc(N2CC[N+]3(CC2)CC[N+]2(CCN(c4nc(C)[nH]c(=O)c4[N+](=O)[O-])CC2)CC3)c([N+](=O)[O-])c(=O)[nH]1	EC50	cytopathic effect	-	MDCK	>70 µg/mL
CC#Cc1cn([C@@H]2O[C@H](COP(=O)(O)Oc3ccccc3Cl)[C@@H](O)[C@@H]2O)c(=O)[nH]c1=O	EC50	plaque count	H1N1 A/Sweden/3/50	MDCK	>100 µM
NC1C2CCCC1CC2	EC50	plaque count	-	MDCK	30.1 µM

An empty or dashed field is not shown. Neighbouring rows are from separate reports. Two numbers with a dash give a range or band.